Experimental data from PMC9951844 (Nature Communications, 2023).

Experiments:
Assay in all cases: cell-based or functional assay
[1] = biological target: SARS-CoV-2 wildtype S1 (SARS-CoV-2 wildtype (Wuhan), UniProt P0DTC2)
[2] = biological target: SARS-CoV-2 Delta (B.1.617.2) S1 (SARS-CoV-2 Delta (B.1.617.2), strain)
[3] = biological target: SARS-CoV-2 Beta (B.1.351) S1 (SARS-CoV-2 Beta (B.1.351), strain)

B1: YB9-258 (antibody, V domains shown)
VH: EVQLVESGGGLIQPGGSLRLSCAASGLTVSSNYMHWVRQAPGKGLEWVSVLYAGGSAFYADSVKGRFTISRNNSKNTLYLQMNSLRAEDTAIYYCARGLGDYLDSWGQGTLVTVSS
VL: DIQMTQSPSSVSASVGDRVTITCRASQGIGSWLAWYQQKPGKAPQLLIYAASTLQSGVPPRFSGSGSGTDFTLTITSLQPEDFASYYCQQANSVLALTFGGGTKVEIK
Q: For B1, which “Pseudovirus Variants (μg/mL), WT, IC50 (neutralisation on 293T-hACE2 cells)” value [1] is on record?
A: 0.238 µg/mL

Q: What about the “Authentic Virus (μg/mL), IC50, Delta (cytopathic effect on Vero-E6 cells)” value [2] of the same binder?
A: 0.0274 µg/mL

Q: And the “Pseudovirus Variants (μg/mL), Delta, IC50 (neutralisation on 293T-hACE2 cells)” value [2]?
A: 0.02 µg/mL

B2: YB13-292 (antibody, V domains shown)
VH: EVQLVESGGGLVKPGGSLRLSCAASGFSFITYNMNWVRQAPGKGLEWVSSISSNILSSTSYIYYADSVKGRFTISRDDAANSLFLQMNSLRVEDTAQYYCARTRSRSVRNCTSATCPVDAFDLWGQGTMVIVSS
VL: DIVLTQSPLSLPVTPGEPASISCRSSQSLLRSNGYNYLDWYLQKPGQSPHLLIYLGSNRASGVPDRFSGSGSGTDFTLKISRVEAEDVGVYYCMQALQTPYTFGQGTNLEIK
Q: Which “Pseudovirus Variants (μg/mL), Beta, IC50 (neutralisation on 293T-hACE2 cells)” value [3] does the source give for B2 here?
A: 0.009 µg/mL

Q: And the “Authentic Virus (μg/mL), IC50, Delta (cytopathic effect on Vero-E6 cells)” value [2]?
A: < 0.004 µg/mL

Q: What about the “Pseudovirus Variants (μg/mL), Delta, IC50 (neutralisation on 293T-hACE2 cells)” value [2] of the same binder?
A: 0.02 µg/mL
